The text below walks through data of article PMC8172068 (PLoS ONE, 2021).

This assay addresses Acinetobacter baumannii rAcpA (Acinetobacter baumannii, UniProt A0ABX6CG12).

In the case of Cysteamine S-Phosphate, the “inhibition (sensitivity)” value (PNPP hydrolysis, max. conc. tested 2.0 mM) was ~ 19%. Also, for the setting “activity in presence/absence of compound x100, at max. conc. tested (Tween 20 3.2 mM; cysteamine S-phosphate 2.0 mM; okadaic acid 0.0001 mM)”, the “Percent Control” value was 81%.
